Experimental data taken from PubChem BioAssay AID588726 (The Scripps Research Institute Molecular Screening Center, 2011).
Only a part is listed here, and it is no random draw. The source made the active and inactive calls. Rule as the data show it: active = inhibition above about 27%; inactive = the rest.

By UniProt entry, the sequences of proteins in these tests, tags left out. Where a name states a change or a piece, a line headed by the entry shows the natural chain unless it says otherwise.
UniProt P9WQA3: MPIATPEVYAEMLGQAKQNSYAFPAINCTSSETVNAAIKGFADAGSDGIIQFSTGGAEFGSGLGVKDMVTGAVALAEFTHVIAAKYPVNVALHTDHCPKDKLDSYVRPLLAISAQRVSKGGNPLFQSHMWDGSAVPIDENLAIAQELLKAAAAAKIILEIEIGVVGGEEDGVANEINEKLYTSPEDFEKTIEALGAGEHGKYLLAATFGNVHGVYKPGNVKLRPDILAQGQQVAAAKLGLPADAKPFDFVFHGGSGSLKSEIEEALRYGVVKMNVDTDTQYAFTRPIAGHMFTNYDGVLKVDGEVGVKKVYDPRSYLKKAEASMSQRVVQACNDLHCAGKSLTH

target: Fructose-bisphosphate aldolase (Mycobacterium tuberculosis (strain ATCC 25618 / H37Rv)) (UniProt P9WQA3); assay: Mtb FBA enzyme inhibitors, primary screen, biochemical, fluorescence, strain H37Rv (AID 588726);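 also: 0% = vehicle and 100% = reference inhibitor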; conditions: purified M. tuberculosis FBA, fluorescence read-out; at 1 µM; stronger effect = higher value

Structure (SMILES) | inhibition
CC(=O)NC(SC(=S)N(C)C)C(Cl)(Cl)Cl (stereo unspecified) | inactive: -0.24%
O=[N+]([O-])c1ncn(CCn2cnc([N+](=O)[O-])n2)n1 | inactive: 2.39%
O=[As](O)(c1ccccc1)c1ccc(O)cc1 | inactive: 0.42%
C(Cc1nn[nH]n1)Cc1nn[nH]n1 | inactive: 0.2%
Nc1ccc([As](=O)(O)c2ccc([N+](=O)[O-])cc2)cc1 | inactive: -1.25%
O=C(OC1CN2CCC1CC2)c1cccc(Cl)c1 (stereo unspecified) | inactive: 1.68%
CCNC(=S)/N=C(\N)N[N+](=O)[O-] | inactive: 3.5%
O=C(NC1CCS(=O)(=O)C1)NP(=S)(Oc1ccccc1)Oc1ccccc1 (stereo unspecified) | inactive: 0.66%
c1ccc(-c2nn[nH]n2)c(-c2nn[nH]n2)c1 | inactive: 1.61%
Cc1ccc(NP(=O)(Oc2cccc(C)c2)Oc2cccc(C)c2)nc1 | inactive: 4.99%
O=P1(N(CCCl)CCCl)OCCC2CCCCN21 (stereo unspecified) | inactive: 1.09%
COC(=O)c1cc2c(s1)N=C(c1ccccc1)N(C)P2(=O)N1CCOCC1 (stereo unspecified) | inactive: -1.88%
CC(=O)NC(SC(=S)N(CC(C)C)CC(C)C)C(Cl)(Cl)Cl (stereo unspecified) | inactive: -0.21%
Cc1ccc(OP(=O)(Nc2ccccn2)Oc2ccc(C)cc2)cc1 | inactive: 1.21%
O=C(OC1CN2CCC1CC2)c1ccccc1 (stereo unspecified) | inactive: 1.33%
CCC(=O)N1C2C3N(C(=O)CC)C1C1N(C(=O)CC)C(C(N1C(=O)CC)N3C(=O)CC)N2C(=O)CC | inactive: 2.42%
CC(NC(=O)COC(=O)C(O)(c1ccccc1)c1ccccc1)c1ccccc1 (stereo unspecified) | inactive: 4.68%
Cc1ccccc1OP(=O)(Nc1ccccn1)Oc1ccccc1C | inactive: 11.7%
O=c1c2cc([N+](=O)[O-])ccc2[nH]c2c([N+](=O)[O-])cc([N+](=O)[O-])cc12 | inactive: -7.43%
CN(C)C(=O)Oc1noc2ccccc12 | inactive: -0.01%
O=P1(Nc2nc3ccc(Cl)cc3s2)COc2ccccc2O1 (stereo unspecified) | inactive: -0.62%
CCOc1ccc(C2=NCC(CBr)S2)cc1 (stereo unspecified) | inactive: 3.61%
CCc1cc(O)c([N+](=O)[O-])c(C)c1[N+](=O)[O-] | inactive: -5.39%
CC(C)(C)C(=O)NC(Sc1ccccc1)C(Cl)(Cl)Cl (stereo unspecified) | inactive: -4.38%
CC(=O)c1ccc(N2CC2c2ccncc2)cc1 (stereo unspecified) | inactive: 3.37%
N#C/C(=C\c1ccc(N(CCBr)CCBr)cc1)C(N)=O | inactive: -13%

Structure (SMILES) | inhibition
COC(=O)C1(C)COP(=O)(NCc2ccccc2)OC1 (stereo unspecified) | inactive: -0.5%
Cc1ccccc1CN(C)C(=O)COC(=O)C(O)(c1ccccc1)c1ccccc1 | inactive: 3.18%
C[C@H]1OP(=O)(Oc2ccccc2)C[C@@H]2O[C@@H]21 (stereo partly specified) | inactive: -0.51%
C[C@@H]1C=CCP(=O)(Oc2ccccc2)O1 (stereo partly specified) | inactive: -1.07%
CC(=O)Nc1ccc([As](=O)(O)O)c(O)c1 | inactive: -6.27%
CC(=O)Nc1ccc(Oc2c([N+](=O)[O-])cc([N+](=O)[O-])cc2[N+](=O)[O-])cc1 | inactive: -13.2%
NC(=O)c1cc([N+](=O)[O-])cc([N+](=O)[O-])c1N | inactive: -4.63%
CN(C(=O)Cc1ccc(Cl)c(Cl)c1)[C@H]1CCCC[C@H]1N1CCCC1 | inactive: -2.41%
Cc1ccc(N/C(=N/P(=O)(N2CCOCC2)N2CCOCC2)N2CCOCC2)cc1 | inactive: 3.39%
COc1ccccc1OP(=O)(Nc1ccc(C)cn1)Oc1ccccc1OC | inactive: 1.22%
Cc1ccc(OP(=O)(Nc2nccs2)Oc2ccc(C)cc2)cc1 | inactive: 0.65%
CN1CCCC(OC(=O)C(c2ccccc2)c2ccccc2)C1 (stereo unspecified) | inactive: -4.67%
Clc1ccc(Cl)c(NC2=NCC(CBr)S2)c1 (stereo unspecified) | inactive: -2.9%
Nc1cc(N)c2nonc2c1[N+](=O)[O-] | inactive: 0.66%
CC(C)CC(=O)NC(Sc1ccc(Cl)cc1)C(Cl)(Cl)Cl (stereo unspecified) | inactive: 1.53%
Oc1ccccc1CNc1ccccn1 | inactive: -1.02%
O=C(NC(Sc1ccncn1)C(Cl)(Cl)Cl)c1ccccc1 (stereo unspecified) | inactive: 2.51%
O=[N+]([O-])C1C(O)C(O)C([N+](=O)[O-])C(O)C1O (stereo unspecified) | inactive: 1.21%
CC(=O)Nc1ccc([As](=O)(O)O)cc1 | inactive: 3.41%
O=C(O)c1ccccc1[As](=O)(O)O | inactive: 0.74%
CCCC1OP(N)(=O)OCC1CC (stereo unspecified) | inactive: -0.05%
O=P(Nc1nc2ccc(Cl)cc2s1)(c1ccccc1)c1ccccc1 | inactive: 0.19%
CN(C)P(=O)(N(C)C)n1c(Nc2ccccc2)nnc1-c1ccccc1 | inactive: -1.74%
Cc1cc(SC(NC(=O)c2ccc(F)cc2)C(Cl)(Cl)Cl)ncn1 (stereo unspecified) | inactive: 0.1%
CCOP(=O)(Nc1ccccc1)OCC | inactive: -2.82%
Cc1ccc(NP(=O)(Oc2ccccc2F)Oc2ccccc2F)nc1 | inactive: 3%

Structure (SMILES) | inhibition
CN(C(=O)Cc1ccc(Cl)c(Cl)c1)[C@H]1CCCC[C@@H]1N1CCCC1 | inactive: -2.03%
CCN(N=Nc1nonc1N)c1nonc1N | inactive: 0.71%
Nc1cccc2ccc([As](=O)(O)O)cc12 | inactive: 22.6%
O=P1(N(CCCl)CCCl)OCCCS1 (stereo unspecified) | inactive: 1.39%
O=C(Nc1cc([As](=O)(O)O)ccc1O)c1ccccc1 | inactive: 2.81%
CC(C)(C)C(=O)NC(Sc1ccncn1)C(Cl)(Cl)Cl (stereo unspecified) | inactive: 0.45%
O=[N+]([O-])c1ncn(CCn2ncnc2[N+](=O)[O-])n1 | inactive: 8.62%
COC(=O)C1(C)COP(=O)(Nc2ccccc2)OC1 (stereo unspecified) | inactive: 0.79%
O=[N+]([O-])c1cccc(NC2=NCC(CBr)S2)c1 (stereo unspecified) | inactive: 4.6%
O=C(O)CNc1ccc([As](=O)(O)O)cc1 | inactive: 2.18%
COc1ccc(C2=NCC(CBr)S2)cc1 (stereo unspecified) | inactive: -3.27%
O=[N+]([O-])c1cccc2n[nH]nc12 | inactive: -4.41%
CC(=O)N1C2C3N(C(C)=O)C1C1N(C(C)=O)C(C(N1C(C)=O)N3C(C)=O)N2C(C)=O | inactive: 0.37%
Cc1ccc(NP(=O)(Oc2ccccc2)Oc2ccccc2)nc1 | inactive: 16.5%
CCc1nc2c(n1)c1c(non1O)c1c2no[n+]1[O-] | inactive: 0.53%
O=[N+]([O-])c1cc([N+](=O)[O-])c(CCNc2ccccc2)c([N+](=O)[O-])c1 | inactive: -2.5%
Nc1ccc([As](=O)(O)c2ccc(N)cc2)cc1 | inactive: -1.9%
C[N+]1=C2C=CC=CC=C2SC12C([N+](=O)[O-])=CC([N+](=O)[O-])=C[C-]2[N+](=O)[O-] (stereo unspecified) | inactive: -0.98%
CCN(/C(=N/P(=O)(N1CCOCC1)N1CCOCC1)N1CCOCC1)c1ccc(OC)cc1 | inactive: -1.09%
CC(C)c1nc(Nc2ccccc2)n(P(=O)(N(C)C)N(C)C)n1 | inactive: 0.38%
CC(C)=N/N=C(\N)N[N+](=O)[O-] | inactive: 3.25%
CN(C)C(=O)OCCc1n(C)cc[n+]1C | inactive: -0.73%
CC1CCN(C(=O)Oc2c(Cl)cc(Cl)c3cccnc23)CC1 | inactive: 1.46%
c1cc(-c2nn[nH]n2)ccc1-c1nn[nH]n1 | inactive: -0.84%
